Pooled drug test results. Numbers come from NIAID ChemDB, via PubChem.

All rows: whole-cell or culture tests; organism: Mycobacterium tuberculosis

Neighbouring rows are from separate reports. ECn is the concentration giving n% inhibition of infection, replication or growth. Inhibition is in % at the dose shown (toxicity tests: loss of growth or viability). MIC bound comes from a single tested concentration. Two numbers with a dash give a range or band. Blank or dashed fields: not listed here. A number after MIC or MFC names an inhibition level or a share of isolates.

smiles | method | measure | strain or isolate | mutations | cell line | dose | result
Nc1nc(-c2ccsc2)c2ccn([C@@H]3O[C@H](CO)C(O)C3O)c2n1 | MTT | MIC | My 331/88 | - | - | - | >250 µM
O=C1CCCCCCCCCCCCCCCO1 | - | MIC | EMB-R | - | - | - | >12.8 µg/mL
O=[N+]([O-])c1cc(F)ccc1-n1cc(CS(=O)(=O)C2c3ccccc3-c3ccccc32)nn1 | broth dilution | MIC99 | Specimen 192 | - | - | - | >222 µM
CCCCc1ccc2nccc(NN)c2c1 | - | inhibition | H37Rv | - | VERO | 12.5 µg/mL | 99%
CC(=O)OCC1=C(C(=O)O)N2C(=O)[C@@H](NC(=O)Cc3cccs3)[C@H]2SC1 | - | inhibition | - | - | - | 100 µg/mL | 0%
CCOC(=O)c1nc2ccccc2nc1Nc1ccc(Cl)c(Cl)c1 | BACTEC | MIC bound | H37Rv | - | - | - | >12.5 µg/mL
CCCCCCCCCCCCN1C(=O)C(C)SC12CCCCC2 | resazurin | EC50 | H37Ra | - | - | - | >25 µg/mL
COc1ccc2cc1-c1cc(ccc1O)C[C@H]1c3cc4c(cc3CCN1C)Oc1c(OC)cc3c(c1O4)[C@H](C2)N(C)CC3 | - | MIC | CS-R | - | - | - | 6.3 µg/mL
C[C@@H](O)[C@H]1C(=O)N2C(C(=O)O)=C(SC3CN(C4=NCCS4)C3)S[C@H]12 | visual reading | MIC | H37Rv | - | - | - | 0.5 µg/mL
COc1ccc(-n2cc(Cn3nc(-c4ccccc4)c4c3CCN(C(=O)Nc3ccccc3)C4)nn2)cc1OC | visual reading | MIC | H37Rv | - | - | - | 186.7 µM
OC[C@H]1O[C@@H](n2ccc3c(-c4cc5ccccc5o4)nc(Cl)nc32)C(O)C1O | MTT | MIC | My 331/88 | - | - | - | 62.5 µM
S=C(S)N1CCNCC1 | BACTEC | MIC | H37Rv | - | - | - | ≥12.5 µg/mL
O=c1[nH]c2ccc(Cl)cc2c(O)c1N=Nc1ccc(Cl)cc1 | resazurin | inhibition | H37Rv | - | - | 6.25 µg/mL | 98%
COc1ccc2c(N/N=C/c3ccc(OC)c4ccccc34)ccnc2c1 | - | inhibition | H37Rv | - | VERO | 12.5 µg/mL | 100%
O=S(=O)(Cc1cn(-c2ccccc2Cl)nn1)C1c2ccccc2-c2ccccc21 | broth dilution | MIC99 | H37Rv | - | - | - | 237 µM
O=c1[nH]c2ccc(Cl)cc2c(O)c1N=Nc1ccc(F)cc1 | resazurin | inhibition | H37Rv | - | - | 6.25 µg/mL | 71%
Cc1cc(C)cc(C(=O)N=C(c2ccncc2)c2nc(-c3ccccc3)oc2O)c1 | BACTEC | inhibition | H37Rv | - | - | 12.5 µg/mL | -2%
CCCCCCCCCCCCN1C(=O)C(CC(=O)O)SC12CCN(C(=O)C(N)Cc1ccccc1)CC2 | resazurin | EC50 | H37Ra | - | - | - | <25 µg/mL
CO[C@@]1(NC(=O)C(C(=O)O)c2ccc(O)cc2)C(=O)N2C(C(=O)O)=C(CSc3nnnn3C)CO[C@@H]21 | - | inhibition | - | - | - | 100 µg/mL | 0%
O=C(O)C[C@@H]1C(=O)O[C@H]2[C@@H]3OC(=O)c4cc(O)c(O)c(O)c4-c4c(cc(O)c(O)c4O)C(=O)OC[C@H]2O[C@@H](OC(=O)c2cc(O)c(O)c(O)c2)[C@@H]3OC(=O)c2cc(O)c(O)c3c2[C@H]1[C@H](O)C(=O)O3 | BACTEC | MIC | H37Rv | - | - | - | ≥12.5 µg/mL
Cc1cccc(N=Nc2c(O)c3ccc(C)cc3[nH]c2=O)c1 | resazurin | inhibition | H37Rv | - | - | 6.25 µg/mL | 76%
Cc1nc(-c2cc3ccccc3o2)c2ccn([C@@H]3O[C@H](CO)C(O)C3O)c2n1 | MTT | MIC | My 331/88 | - | - | - | >250 µM
NNC(=O)C12C3(Cl)C4(Cl)C(Cl)(Cl)C5(Cl)C3(Cl)C1(Cl)C5(Cl)C42Cl | BACTEC | MIC bound | H37Rv | - | - | - | >12.5 µg/mL
O=C(NCC(=O)N1CCN(c2ccc(N3C[C@H](Cn4ccnn4)OC3=O)cc2F)CC1)C1=CC=C([N+](=O)[O-])C1 | broth dilution / visual reading | MIC | SRI 1369 | Isoniazid-resistant | - | - | 0.057–0.12 µM
CC(C)[C@@H](C)/C=C/[C@@H](C)[C@H]1CC[C@H]2C3=CC=C4C[C@@H](O)CC[C@]4(C)[C@H]3CC[C@]12C | - | MIC | H37Rv | - | - | - | >128 µg/mL
Cc1ccc(-n2c(=S)oc3c(Cl)cc(Cl)cc3c2=S)cc1 | - | MIC | 331/81 | - | - | - | 4 µM
OC[C@H]1O[C@@H](n2ccc3c(-c4cc5ccccc5o4)nc(F)nc32)C(O)C1O | MTT | MIC | My 331/88 | - | - | - | 62.5 µM
CCC=Nc1c(O)cc(-c2ccccc2)n(C)c1=O | BACTEC | inhibition | H37Rv | - | - | 12.5 µg/mL | 51%
OC[C@H]1O[C@@H](n2ccc3c(-c4ccco4)nc(F)nc32)C(O)C1O | MTT | MIC | My 331/88 | - | - | - | >250 µM
O=C(/C=C/c1ccccc1)n1ccnc1 | resazurin | MIC bound | H37Rv | - | - | - | >6.25 µg/mL
CCCCCCCCN1C(=S)CSC12CCCCC2 | resazurin | inhibition | H37Ra | - | - | 25 µg/mL | 7%
C[C@@H](O)[C@H]1C(=O)N2C(C(=O)O)=C(S[C@@H]3CCCN3C3CCOCC3)S[C@H]12 | visual reading | MIC | H37Rv | - | - | - | 4 µg/mL
CO[C@H]1/C=C/O[C@@]2(C)Oc3c(C)c(O)c4c(O)c(c5c(c4c3C2=O)NC2(CCNCC2)N=5)=NC(=O)/C(C)=C\C=C\[C@H](C)[C@H](O)[C@@H](C)[C@@H](O)[C@@H](C)[C@H](OC(C)=O)[C@@H]1C | - | MIC | H37Rv | - | - | - | 0.01 µg/mL
COc1ccc(-n2cc(CSC3c4ccccc4-c4ccccc43)nn2)cc1 | broth dilution | MIC99 | Specimen 192 | - | - | - | 129.7 µM
CO[C@H]1/C=C/O[C@@]2(C)Oc3c(C)c(O)c4c(O)c(c5c(c4c3C2=O)NC2(CCN(C)CC2)N=5)=NC(=O)/C(C)=C\C=C\[C@H](C)[C@H](O)[C@@H](C)[C@@H](O)[C@@H](C)[C@H](OC(C)=O)[C@@H]1C | - | MIC | H37Rv | - | - | - | 0.0025 µg/mL
O=C(CCCCCCCCC(=O)N/N=C/c1ccccc1O)N/N=C/c1ccccc1O | BACTEC | inhibition | H37Rv | - | - | 12.5 µg/mL | 24%
S=c1[nH]c2ccccc2c(=S)n1-c1ccc(Cl)cc1 | - | MIC | 331/81 | - | - | - | 64 µM
CC(=O)NNc1nc(C)c(C(=O)NNC(=O)C(=O)Nc2ccc([N+](=O)[O-])cc2C#N)s1 | resazurin | MIC bound | H37Rv | - | - | - | >6.25 µg/mL
NCc1ccccc1CC(=O)N[C@@H]1C(=O)N2C(C(=O)O)=C(CSc3nnnn3CC(=O)O)CS[C@H]12 | - | inhibition | - | - | - | 100 µg/mL | 6%
Cc1nc(F)nc2c1ccn2[C@@H]1O[C@H](CO)C(O)C1O | MTT | MIC | My 331/88 | - | - | - | 250 µM
S=c1oc2c(Cl)cc(Cl)cc2c(=S)n1-c1ccc(Cl)cc1 | - | MIC | 331/81 | - | - | - | 16 µM
CC1(C)OC(=O)N(CO)C1=O | BACTEC | inhibition | H37Rv | - | - | 12.5 µg/mL | 0%
CCCCCCCCCCS(=O)CC(N)=O | - | MIC | H37Rv | - | - | - | >50 µg/mL
Nc1c(-c2nc3ccccc3s2)[n+]([O-])c2ccccc2[n+]1[O-] | BACTEC | MIC bound | H37Rv | - | - | - | >12.5 µg/mL
CCCCCCCCS(=O)(=O)CC(=O)OC | - | MIC | H37Rv | - | - | - | 12.5 µg/mL
Nc1nc(-c2cccs2)c2ccn([C@@H]3O[C@H](CO)C(O)C3O)c2n1 | MTT | MIC | My 331/88 | - | - | - | >250 µM
CC(/C=C/[C@H](C)C(C)C)[C@H]1CC[C@@H]2[C@]1(C)CC[C@H]1[C@]23C=C[C@]2(C[C@@H](O)CC[C@]12C)O3 | - | MIC | H37Rv | - | - | - | 1 µg/mL
Cc1nc(-c2ccoc2)c2ccn([C@@H]3O[C@H](CO)C(O)C3O)c2n1 | MTT | MIC | My 331/88 | - | - | - | >250 µM
Cc1ccc(S(=O)(=O)NC(=O)OC23COCN2COC3)cc1 | BACTEC | inhibition | H37Rv | - | - | 12.5 µg/mL | 2%
Cc1cc(N/N=C/c2ccc3c(c2)OCO3)c2c(Cl)cc(Cl)cc2n1 | - | inhibition | H37Rv | - | VERO | 12.5 µg/mL | 4%
Cc1c(Cl)cccc1N=Nc1c(O)c2cccc([N+](=O)[O-])c2[nH]c1=O | resazurin | inhibition | H37Rv | - | - | 6.25 µg/mL | 56%
COC(=O)C1=CCC[C@H]2[C@](C)(CCC3=CC(=O)OC3O)[C@@H](C)CC[C@]12C | - | inhibition | H37Rv | - | - | 12.5 µg/mL | 0%
O=C1CSC2(CCCCC2)N1Cc1ccccc1 | resazurin | EC50 | H37Ra | - | - | - | >25 µg/mL
CCC(C)N1CCC2(CC1)N=c1c(c3c4c5c(C)c(O)c3c(O)c1=NC(=O)/C(C)=C\C=C\[C@H](C)[C@H](O)[C@@H](C)[C@@H](O)[C@@H](C)[C@H](OC(C)=O)[C@H](C)[C@@H](OC)/C=C/O[C@@](C)(O5)C4=O)N2 | - | MIC | H37Rv | - | - | - | 0.0025 µg/mL
O=c1[nH]c2ccc(Cl)cc2c(O)c1N=Nc1ccc(Cl)c(Cl)c1 | resazurin | inhibition | H37Rv | - | - | 6.25 µg/mL | 95%
CCCCCCCCN1C(=O)CS(=O)(=O)C12CCCCC2 | resazurin | inhibition | H37Ra | - | - | 25 µg/mL | 81%
CCCCCN1CCC2(CC1)N=c1c(c3c4c5c(C)c(O)c3c(O)c1=NC(=O)/C(C)=C\C=C\[C@H](C)[C@H](O)[C@@H](C)[C@@H](O)[C@@H](C)[C@H](OC(C)=O)[C@H](C)[C@@H](OC)/C=C/O[C@@](C)(O5)C4=O)N2 | - | MIC | H37Rv | - | - | - | 0.0012 µg/mL
Cc1ccc(-n2cc(CSC3c4ccccc4-c4ccccc43)nn2)cc1C | broth dilution | MIC99 | H37Rv | - | - | - | >261 µM
Oc1cc2ccc1Oc1ccc(cc1)CCc1ccc(c(O)c1)Oc1ccc(cc1)CC2 | resazurin | MIC | H37Rv | - | - | - | 40 µg/mL
O=C(Nc1ccccc1)N1CCc2c(c(-c3ccccc3)nn2Cc2cn(-c3ccc([N+](=O)[O-])cc3)nn2)C1 | visual reading | MIC | H37Rv | - | - | - | 192.1 µM
Clc1cc2nsnc2cc1Cl | BACTEC | MIC bound | H37Rv | - | - | - | >6.25 µg/mL
CC(=O)c1ccc(N=Nc2c(O)c3cc(Cl)ccc3[nH]c2=O)cc1 | resazurin | inhibition | H37Rv | - | - | 6.25 µg/mL | 29%
CCN(CC)c1ccc2nc3c4ccccc4c(=N)cc-3oc2c1 | - | MIC | H37Rv | - | - | - | 6.3 µg/mL
CCCCCCCCCCCCN1C(=O)C(CC(=O)O)SC12CCC(C(C)(C)C)CC2 | resazurin | inhibition | H37Ra | - | - | 25 µg/mL | 96%
COc1ccc(-n2cc(Cn3nc(-c4ccccc4)c4c3CCN(C(=O)Nc3ccccc3)C4)nn2)cc1 | visual reading | MIC | H37Rv | - | - | - | 24.72 µM
S=c1[nH]c2ccccc2c(=S)n1-c1ccc(Cl)c(Cl)c1 | - | MIC | 331/81 | - | - | - | 16 µM
CCCCCCCCCCP(=O)(O)CC(N)=O | - | MIC | H37Rv | - | - | - | 25 µg/mL
CC1C(=O)OC2CC[N+]3(C(=O)C(F)(F)F)CC4OC4(COC(=O)C(C)(O)C1(C)O)C23.O=C([O-])C(F)(F)F | BACTEC | inhibition | H37Rv | - | - | 12.5 µg/mL | 7%
COc1ccc2ccccc2c1/C=N/Nc1ccnc2cc(Cl)ccc12 | - | inhibition | H37Rv | - | VERO | 12.5 µg/mL | 99%
O=C(Nc1ccccc1)N1CCc2c(c(-c3ccccc3)nn2Cc2cn(-c3ccc(Cl)c(Cl)c3)nn2)C1 | visual reading | MIC | H37Rv | - | - | - | 184 µM
CC1COc2c(N3CCN(C)CC3)c(F)cc3c(=O)c(C(=O)O)cn1c23 | - | MIC50 | 25 strains | - | - | - | 0.78 µg/mL
NNC(=O)c1ncn([C@@H]2O[C@H](CO)[C@@H](O)[C@H]2O)c1N | BACTEC | MIC | H37Rv | - | - | - | ≥12.5 µg/mL
CCCCCCCCN1C(=O)C(CC(=O)O)SC12CCCCC2 | resazurin | inhibition | H37Ra | - | - | 25 µg/mL | 8%
O=C1CCC2OC3CCC(=O)N3CN12 | resazurin | inhibition | H37Rv | - | - | 6.25 µg/mL | 1%
CCCCCCCN1CCC2(CC1)N=c1c(c3c4c5c(C)c(O)c3c(O)c1=NC(=O)/C(C)=C\C=C\[C@H](C)[C@H](O)[C@@H](C)[C@@H](O)[C@@H](C)[C@H](OC(C)=O)[C@H](C)[C@@H](OC)/C=C/O[C@@](C)(O5)C4=O)N2 | - | MIC | H37Rv | - | - | - | 0.0012 µg/mL
CCN(CC)Cc1cc(C)c(O)c(N=Nc2cccc3ccccc23)c1C | - | MIC bound | H37Rv | - | - | - | >6.25 µg/mL
CCCCCCCCCCCCN1C(=O)CSC12CCCCC2 | resazurin | EC50 | H37Ra | - | - | - | >25 µg/mL

Repeating the final 4 entries:

smiles	method	measure	strain or isolate	mutations	cell line	dose	result
O=C1CCC2OC3CCC(=O)N3CN12	resazurin	inhibition	H37Rv	-	-	6.25 µg/mL	1%
CCCCCCCN1CCC2(CC1)N=c1c(c3c4c5c(C)c(O)c3c(O)c1=NC(=O)/C(C)=C\C=C\[C@H](C)[C@H](O)[C@@H](C)[C@@H](O)[C@@H](C)[C@H](OC(C)=O)[C@H](C)[C@@H](OC)/C=C/O[C@@](C)(O5)C4=O)N2	-	MIC	H37Rv	-	-	-	0.0012 µg/mL
CCN(CC)Cc1cc(C)c(O)c(N=Nc2cccc3ccccc23)c1C	-	MIC bound	H37Rv	-	-	-	>6.25 µg/mL
CCCCCCCCCCCCN1C(=O)CSC12CCCCC2	resazurin	EC50	H37Ra	-	-	-	>25 µg/mL